Measured values from several laboratories, pooled; numbers as filed in NIAID ChemDB.

All rows: toxicity to cultured cells; measure: CC50

Conditions beyond the fields shown may differ between rows. CCn: concentration that lowers growth or viability of the cells by n%. An empty or dashed field is not shown.

COC(=O)c1c(OC)cc2cc3c(c(O)c2c1C)C(=O)[C@]1(O)C(=O)C=C(OC)[C@@H](O)[C@]1(O)C3=O ; cells: HeLa ; result: 212 µM
Nc1ncnc2c1ncn2CCOCP(=O)(O)O ; cells: C3 ; result: >200 µM
CCOC(=O)c1ccc2nc(-c3ccc4c(c3)OCO4)[nH]c2c1 ; cells: Vero cell ; method: MTT ; result: >62.5 µg/mL
O=C(O)P(=O)(O)O ; cells: TR-14 ; result: >200 µg/mL
Cc1ccc(Nc2cn(C3C=CC(O)C3)c(=O)n(C3C=CC(O)C3)c2=O)cc1 ; cells: Vero cells ; method: MTT ; result: >50 µg/mL
O=[N+]([O-])c1cc(C(F)(F)F)cc([N+](=O)[O-])c1N(CCO)CCO ; cells: MDCK cells ; result: 65.9 µM
COC1N(C2CC(N=[N+]=[N-])C(CO)O2)C(=O)NC(=O)C1(C)Br ; cells: HUMAN SPERM ; result: 104 µM
CCC(CC)Nc1c([N+](=O)[O-])cc(C(F)(F)F)cc1[N+](=O)[O-] ; cells: MDCK cells ; result: 185 µM
CCOC(=O)c1ccc2nc(-c3ccc(O)c(OC)c3)[nH]c2c1 ; cells: Vero cell ; method: MTT ; result: >62.5 µg/mL
COCCN(CCOC)c1c([N+](=O)[O-])cc(C(F)(F)F)cc1[N+](=O)[O-] ; cells: MDCK cells ; result: 139.9 µM
Nc1nc2c(ncn2COC(CO)CO)c(=O)[nH]1 ; cells: BCBL-1 ; result: 90 µg/mL
CO[C@@H]1[C@H](O)[C@@H](COP(=O)(O)OP(=O)(O)OP(=O)(O)O)O[C@H]1n1ccc(N)nc1=O ; cells: Huh7.5.1 ; method: MTT ; result: >100 µg/mL
NS(=O)(=O)c1cc([N+](=O)[O-])c(N(CCO)CCO)c([N+](=O)[O-])c1 ; cells: MDCK cells ; result: >80 µM
CCCCCCCC/C=C\CCCCCCCCCCCC(=O)O ; cells: HeLa ; result: 75 µg/mL
O=c1[nH]c(=O)n([C@H]2C[C@H](O)[C@@H](CO)O2)c[c]1[Hg+].O=c1cc[nH]c(=S)[nH]1 ; cells: HELA TK- ; method: trypan blue ; result: >115 µg/mL
C[C@H]1[C@H](C)CC[C@]2(C(=O)O)CC[C@]3(C)C(=CC[C@@H]4[C@@]5(C)CC[C@H](O)C(C)(C)[C@@H]5CC[C@]43C)[C@H]12 ; cells: Huh7.5.1 ; method: MTT ; result: >200 µg/mL
Cc1cn([C@H]2C[C@H](N=[N+]=[N-])[C@@H](CO)O2)c(=O)[nH]c1=O ; cells: C3 ; result: 10 µM
C=C(C)/C=C/[C@]12C[C@H](C)C3CC[C@](C)(N)[C@@H](CC[C@H]1C)[C@@H]32 ; cells: Vero cells ; result: >128 µg/mL
COc1ccc(OC)c(CCNC(=S)Nc2ccc(Br)cn2)c1 ; cells: HUMAN SPERM ; result: >300 µM
Cc1ccc(Nc2c[nH]c(=O)[nH]c2=O)cc1 ; cells: A549 cells ; method: MTT ; result: >50 µg/mL
CCOC(=O)c1ccc2c(c1)nc(-c1ccc(O)c(OC)c1)n2CCN1CCCC1=O ; cells: Vero cell ; method: MTT ; result: >62.5 µg/mL
NCC(O)c1ccc(O)c(O)c1 ; cells: HeLa ; result: 75 µg/mL
O=P(Oc1ccccc1)(Oc1ccccc1)Oc1ccccc1 ; cells: HCT116 ; result: 70.7 µM
Fc1ccccc1CCNC(=S)Nc1ccc(Br)cn1 ; cells: HUMAN SPERM ; result: 147 µM
CCCN(CCC)c1c([N+](=O)[O-])cc(C(=O)NC)cc1[N+](=O)[O-] ; cells: MDCK cells ; result: 96 µM
Nc1nc(N)c2ncn([C@H]3CC[C@@H](CO)O3)c2n1 ; cells: GEMM-CFC ; result: 165 µM
CCOC(=O)c1ccc2c(c1)nc(-c1ccc(Cl)cc1)n2CCN1CCCC1=O ; cells: Vero cell ; method: MTT ; result: >62.5 µg/mL
CCC[C@@H]1C[C@@H](C(=O)N[C@@H]([C@H]2O[C@H](SC)[C@H](O)[C@@H](O)[C@H]2O)[C@@H](C)O)N(C)C1 ; cells: HeLa ; result: >100 µg/mL
Nc1nc(=O)n([C@@H]2CS[C@H](CO)O2)cc1F ; cells: CFU-GM ; result: 50 µM
CCOC(=O)c1ccc2nc(-c3ccccc3)[nH]c2c1 ; cells: Vero cell ; method: MTT ; result: >62.5 µg/mL
C[C@H]1[C@H](O)[C@@H](C)/C=C/C=C/C=C/C=C/C=C/C=C/C=C/[C@H](O[C@@H]2O[C@H](C)[C@@H](O)[C@H](N)[C@@H]2O)C[C@@H]2O[C@](O)(C[C@@H](O)C[C@@H](O)CC[C@H](O)[C@@H](O)C[C@@H](O)CC(=O)O[C@H]1C)C[C@H](O)[C@H]2C(=O)O ; cells: Mouse neuroblastoma CCL131 ; method: MTT / tetrazolium ; result: 15.62 µg/mL
CNC(=O)c1cc([N+](=O)[O-])c(N2CCOCC2)c([N+](=O)[O-])c1 ; cells: MDCK cells ; result: 96 µM
O=c1[nH]c(=O)n([C@H]2C[C@H](O)[C@@H](CO)O2)cc1/C=C/Br ; cells: BCBL-1 ; result: 119 µg/mL
COC(=O)[C@H](C)NP(=O)(OC[C@H]1O[C@@H](n2cc(C)c(=O)[nH]c2=O)C[C@@H]1N=[N+]=[N-])Oc1ccc(Br)cc1 ; cells: HUMAN SPERM ; result: >300 µM
CC(=O)OC[C@]12CCC(C)=C[C@H]1O[C@@H]1[C@H](O)[C@@H](OC(C)=O)[C@@]2(C)[C@@]12CO2 ; cells: HeLa ; result: <10 µg/mL
OC[C@@H]1CC[C@H](n2cnc3c(Cl)ncnc32)O1 ; cells: BFU-E ; result: 2.9 µM
CCCNc1c([N+](=O)[O-])cc(S(N)(=O)=O)cc1[N+](=O)[O-] ; cells: MDCK cells ; result: 36.6 µM
O=c1c(Nc2ccccc2)cn(C2C=CC(O)C2)c(=O)n1C1C=CC(O)C1 ; cells: Vero cells ; method: MTT ; result: >50 µg/mL
NC(CS)C(=O)O.O=c1[nH]c(=O)n([C@H]2C[C@H](O)[C@@H](CO)O2)c[c]1[Hg+] ; cells: HELA TK- ; method: trypan blue ; result: >114 µg/mL
CCCCCCCCCc1ccc(OCCOCCOCCOCCOCCOCCOCCOCCOCCO)cc1 ; cells: HUMAN SPERM ; result: 81 µM
O=C(O)c1cc([N+](=O)[O-])c(N2CCOCC2)c([N+](=O)[O-])c1 ; cells: MDCK cells ; result: >80 µM
CC1(C)CC[C@]2(C(=O)O)CC[C@]3(C)C(=CC[C@@H]4[C@@]5(C)CC[C@H](O)C(C)(C)[C@@H]5CC[C@]43C)[C@@H]2C1 ; cells: HepG2-5B ; method: MTT ; result: >100 µg/mL
CCCCc1ccc(Nc2c[nH]c(=O)[nH]c2=O)cc1 ; cells: Vero cells ; method: MTT ; result: >50 µg/mL
O=c1[nH]c(=O)n([C@H]2C[C@H](O)[C@@H](CO)O2)c[c]1[Hg+].OCC[S-] ; cells: HELA TK- ; method: trypan blue ; result: 19.4 µg/mL
CO[C@H]1/C=C/O[C@@]2(C)Oc3c(C)c(O)c4c(O)c(c(/C=N/N5CCN(C)CC5)c(O)c4c3C2=O)NC(=O)/C(C)=C\C=C\[C@H](C)[C@H](O)[C@@H](C)[C@@H](O)[C@@H](C)[C@H](OC(C)=O)[C@@H]1C ; cells: Vero cell ; method: MTT ; result: >62.5 µg/mL
Nc1ccn(C[C@@H](CO)OCP(=O)(O)O)c(=O)n1 ; cells: H4 ; result: 45 µg/mL
S=C(NCCc1ccccn1)Nc1ccc(Br)cn1 ; cells: HUMAN SPERM ; result: >300 µM
O=c1[nH]cnc2c1ncn2[C@H]1CC[C@@H](CO)O1 ; cells: MM ; result: >200 µM

7 of the rows above, restated:

| smiles | cells | method | result |
|---|---|---|---|
| CCCNc1c([N+](=O)[O-])cc(S(N)(=O)=O)cc1[N+](=O)[O-] | MDCK cells | - | 36.6 µM |
| Cc1ccc(Nc2c[nH]c(=O)[nH]c2=O)cc1 | A549 cells | MTT | >50 µg/mL |
| CCC(CC)Nc1c([N+](=O)[O-])cc(C(F)(F)F)cc1[N+](=O)[O-] | MDCK cells | - | 185 µM |
| O=C(O)c1cc([N+](=O)[O-])c(N2CCOCC2)c([N+](=O)[O-])c1 | MDCK cells | - | >80 µM |
| COCCN(CCOC)c1c([N+](=O)[O-])cc(C(F)(F)F)cc1[N+](=O)[O-] | MDCK cells | - | 139.9 µM |
| O=c1[nH]c(=O)n([C@H]2C[C@H](O)[C@@H](CO)O2)c[c]1[Hg+].OCC[S-] | HELA TK- | trypan blue | 19.4 µg/mL |
| C=C(C)/C=C/[C@]12C[C@H](C)C3CC[C@](C)(N)[C@@H](CC[C@H]1C)[C@@H]32 | Vero cells | - | >128 µg/mL |